Compound potency records, mixed from different reports. Data source: NIAID ChemDB in PubChem.

Shared fields: toxicity to cultured cells; cells: ATH8; endpoint: CC50

Neighbouring rows are from separate reports.

Nc1ncnc2c1ncn2[C@@H]1C=C(CO)[C@@H](O)[C@H]1O ; value: <0.05 µg/mL
O=c1ccn([C@H]2C=C[C@@H](CO)O2)c(=O)[nH]1 ; value: 107 µM
NC(=O)c1ncn([C@@H]2O[C@H](CO)[C@@H](O)[C@H]2O)n1 ; value: <100 µg/mL
Nc1nc2c(ncn2[C@H]2CC[C@@H](CO)O2)c(=O)[nH]1 ; value: 500 µM
Nc1nc2c(ncn2[C@H]2CC[C@@H](CO)O2)c(=O)[nH]1 ; value: >200 µM
Cc1cn([C@H]2CC[C@@H](CO)O2)c(=O)[nH]c1=O ; value: >2000 µM
CC(C)(C)NC(=O)[C@@H]1CCCN1C(=O)[C@@H](O)[C@H](Cc1ccccc1)NC(=O)[C@H](CC(N)=O)NC(=O)c1ccc2ccccc2n1 ; value: >20 µM
Nc1ncnc2c1ncn2[C@@H]1O[C@H](CO)[C@@H](O)[C@@H]1O ; value: <50 µg/mL
CC(C)[C@H](NC(=O)N(C)Cc1ccccn1)C(=O)N[C@@H](Cc1ccccc1)[C@H](O)[C@H](O)[C@H](Cc1ccccc1)NC(=O)[C@@H](NC(=O)N(C)Cc1ccccn1)C(C)C ; value: >100 µM
Nc1nc2c(ncn2[C@@H]2C[C@H](CO)[C@H]2CO)c(=O)[nH]1 ; value: >100 µM
Nc1ccn([C@H]2C[C@H](F)[C@@H](CO)O2)c(=O)n1 ; value: >250 µM
CSC[C@H](NC(=O)COc1cccc2ccccc12)C(=O)N[C@@H](Cc1ccccc1)[C@H](O)C(=O)N1CSC(C)(C)[C@H]1C(=O)NC(C)(C)C ; value: 7 µM
Nc1ccn([C@H]2CC[C@@H](CO)O2)c(=O)n1 ; value: 30 µM
O=c1ccn([C@H]2C=C[C@@H](CO)O2)c(=O)[nH]1 ; value: 107 µM
Cc1cn([C@H]2CC[C@@H](CO)O2)c(=O)[nH]c1=O ; value: >100 µM
Cc1cn([C@H]2C[C@H](Cl)[C@@H](CO)O2)c(=O)[nH]c1=O ; value: >500 µM
Cc1cn([C@H]2C[C@H](N=[N+]=[N-])[C@@H](CO)O2)c(=O)[nH]c1=O ; value: >10 µM
Nc1ccn([C@H]2C=C[C@@H](CO)O2)c(=O)n1 ; value: 35 µM
OC[C@H]1O[C@@H](n2cnc3c2NC=NC[C@H]3O)C[C@@H]1O ; value: >0.02 µM
Nc1ncnc2c1ncn2[C@H]1CC[C@@H](CO)O1 ; value: >500 µM
Nc1ccn([C@@H]2C[C@H](CO)[C@H]2CO)c(=O)n1 ; value: >100 µM
Cc1cn([C@H]2C=C[C@@H](CO)O2)c(=O)[nH]c1=O ; method: trypan blue ; value: 110 µM
O=c1[nH]cnc2c1ncn2[C@@H]1C[C@H](CO)[C@H]1CO ; value: >500 µM
Nc1ccn(CC#CCO)c(=O)n1 ; value: >100 µM
CCO[C@H]1C[C@H](n2cc(C)c(=O)[nH]c2=O)O[C@@H]1CO ; value: >100 µM
Nc1ccn(C=C=CCO)c(=O)n1 ; value: >5 µM
CO[C@H]1C[C@H](n2cc(C)c(=O)[nH]c2=O)O[C@@H]1CO ; value: 88 µM
Nc1ncnc2c1ncn2C=C=CCCl ; value: <100 µM
Nc1ccn([C@H]2CC[C@@H](CO)O2)c(=O)n1 ; method: trypan blue ; value: 35 µM
Cc1cn([C@H]2C[C@H](N=[N+]=[N-])[C@@H](CO)O2)c(=O)[nH]c1=O ; value: 40 µM
CCC(C)C(NC(=O)[C@@H]1CCCN1C(=O)[C@@H](O)[C@H](Cc1ccccc1)NC(=O)[C@H](CC(N)=O)NC(=O)OCc1ccccc1)C(=O)NCC1CCCCC1 ; value: 20 µM
Nc1nc2c(ncn2C=C=CCO)c(=O)[nH]1 ; value: ~100 µM
Cc1cn([C@H]2C[C@H](SC#N)[C@@H](CO)O2)c(=O)[nH]c1=O ; value: >100 µM
Nc1ncnc2c1ncn2CCCCO ; value: <1000 µM
Nc1nc2c(ncn2[C@H]2CC[C@@H](CO)O2)c(=O)[nH]1 ; value: >200 µM
Cc1cn([C@H]2C[C@H](SCCO)[C@@H](CO)O2)c(=O)[nH]c1=O ; value: >100 µM

The last 4 rows once more:

structure | method | value
Cc1cn([C@H]2C[C@H](SC#N)[C@@H](CO)O2)c(=O)[nH]c1=O |  | >100 µM
Nc1ncnc2c1ncn2CCCCO |  | <1000 µM
Nc1nc2c(ncn2[C@H]2CC[C@@H](CO)O2)c(=O)[nH]1 |  | >200 µM
Cc1cn([C@H]2C[C@H](SCCO)[C@@H](CO)O2)c(=O)[nH]c1=O |  | >100 µM

An empty or dashed field is not shown. CCn: concentration that lowers growth or viability of the cells by n%.